Pooled drug test results. Numbers come from NIAID ChemDB, via PubChem.

Common to all: growth or infection tests; organism: HIV-1

Inhibition is in % at the dose shown (toxicity tests: loss of growth or viability). An empty or dashed field is not shown. Fold resistance has wild type as its base. ECn: concentration that inhibits the pathogen or its effect by n%. Neighbouring rows are from separate reports.

SMILES | strain | mutations | cell line | read by | setting | read-out | tested at | value
c1cc(CN2CCCNCCNCCCNCC2)ccc1CN1CCCNCCNCCCNCC1 | SW12 CLADE C X4 |  | PBMC | p24 |  | inhibition | 0.5 µM | 86%
Cc1cn([C@H]2C=C[C@@H](CO)O2)c(=O)[nH]c1=O |  | L74V | Primary T lymphocytes | p24 / ELISA |  | EC90 |  | 9.8 µM
CC[C@H](C)[C@H](C(=O)O)N1C[C@H](CN2CCC(c3cc(Cc4cc(C(F)(F)F)cc(C(F)(F)F)c4)nn3CC)CC2)[C@@H](c2cccc(F)c2)C1 | BaL |  | HeLa | β-galactosidase |  | EC90 |  | 0.011 µM
N#Cc1cc2[nH]c3ccccc3c2n(-c2ccc([N+](=O)[O-])cc2)c1=O | NNRTI-resistant | RT-G190S | HeLa | luciferase |  | EC50 |  | 0.265 µM
Cc1ccnc2c1NC(=O)c1cccnc1N2C1CC1 |  | RT-L74V A98G | MT-4 |  |  | EC95 |  | 3 µM
N#CC[C@H](C1CCCC1)n1cc(-c2ncnc3[nH]ccc23)cn1 | LAI |  | Primary T lymphocytes | p24 / ELISA |  | EC90 |  | 6.1 µM
CC(C)(C)NC(=O)[C@@H]1C[C@@H]2CCCC[C@@H]2CN1C[C@@H](O)[C@H](Cc1ccccc1)NC(=O)[C@H](CC(N)=O)NC(=O)c1ccc2ccccc2n1 | NL4-3 | PR-L10R L63P V82T | MT-4 | p24 |  | EC95 |  | 0.025 µM
CC(=O)N1CCC(C(=O)N(CCCN2CCC(Cc3ccc(C(N)=O)cc3)CC2)c2ccc(C)c(Cl)c2)CC1 | R5X4 subtype B_3 recombinant |  | U87 (CD4+ CCR5+) + U87 | luciferase |  | EC50 |  | 0.0011 µM
Cc1cc(S(N)(=O)=O)ccc1NC(=O)COc1ccc(Cl)cc1C(=O)c1cc(Cl)cc(C#N)c1 | NNRTI-resistant (RT K103N P225H) | RT-K103N P225H | MAGI | β-galactosidase |  | fold resistance |  | 1.35
Cc1cn([C@H]2C[C@H](N=[N+]=[N-])[C@@H](CO)O2)c(=O)[nH]c1=O | Recombinant | RT-M184V | HeLa | luciferase |  | fold resistance |  | 0.5
CC[C@H](C)[C@H](C(=O)O)N1C[C@H](CN2CCC(c3cc(Cc4ccc5c(c4)OCO5)nn3CC)CC2)[C@@H](c2cccc(F)c2)C1 | BaL |  | HeLa | β-galactosidase | 50% human serum | EC90 |  | 0.1 µM
O=C1N(Cc2ccc(CO)cc2)[C@H](Cc2ccccc2)[C@H](O)[C@@H](O)[C@@H](Cc2ccccc2)N1Cc1ccc(CO)cc1 | 1 clinical isolate |  | PBMC | p24 |  | inhibition | 0.18 µM | 90%
O=C(O)P(=O)(O)O | IIIB |  | PBL | RT activity | 6 d | inhibition | 32 µM | 92%
CCn1nc(Cc2ccc(OC3CC3)cc2)cc1C1CCN(C[C@H]2CN([C@@H](C(=O)O)C(C)(C)C)C[C@@H]2c2cccc(F)c2)CC1 | BaL |  | HeLa | β-galactosidase |  | EC90 |  | <0.00014 µM
CC(C)c1nc(CN(C)C(=O)N[C@H](C(=O)N[C@@H](Cc2ccccc2)C[C@H](O)[C@H](Cc2ccccc2)NC(=O)OCc2cncs2)C(C)C)cs1 | NL4-3 | PR-D30N A71V | MT-4 | p24 |  | EC90 |  | 0.01 µM
CC[C@H](C)[C@H](C(=O)O)N1C[C@H](CN2CCC(c3cc(Cc4ccc(C)cc4)nn3CC)CC2)[C@@H](c2cccc(F)c2)C1 | BaL |  | HeLa | β-galactosidase |  | EC90 |  | <0.00014 µM
CC(C)=CCN1Cc2cc(Cl)cc3[nH]c(=S)n(c23)C[C@@H]1C | RTMC | RT-D67N K70R T215Y K219Q | HT4 + HT4 LacZ-1 | plaque count |  | EC50 |  | 0.16 µM
CCn1nc(Cc2cccc(OC)c2)cc1C1CCN(C[C@H]2CN([C@@H](C(=O)O)C(C)(C)C)C[C@@H]2c2cccc(F)c2)CC1 | BaL |  | HeLa | β-galactosidase | 50% human serum | EC90 |  | 0.033 µM
Cn1c2ccccc2c2c1cc(C#N)c(=O)n2-c1ccc([N+](=O)[O-])cc1 | NNRTI-resistant | RT-K103N Y188L | HeLa | luciferase |  | EC50 |  | 0.0069 µM
CC[C@H](C)[C@H](C(=O)O)N1C[C@H](CN2CCC(c3cc(Cc4ccc(O)cc4)nn3CC)CC2)[C@@H](c2cccc(F)c2)C1 | BaL |  | HeLa | β-galactosidase |  | EC90 |  | 0.0004 µM
Nc1ccn([C@@H]2CS[C@H](CO)O2)c(=O)n1 |  | 4xAZT | Primary T lymphocytes | p24 / ELISA |  | EC90 |  | 3.4 µM
CCn1nc(Cc2ccc(OC)c(C#N)c2)cc1C1CCN(C[C@H]2CN([C@@H](C(=O)O)C(C)(C)C)C[C@@H]2c2cccc(F)c2)CC1 | BaL |  | HeLa | β-galactosidase | 50% human serum | EC90 |  | 0.033 µM
CC(C)CN(C[C@@H](O)[C@H](Cc1ccccc1)NC(=O)[C@H](CC(N)=O)NC(=O)c1ccc2ccccc2n1)C(=O)NC(C)(C)C | NL4-3 |  | MT-4 | p24 |  | EC95 |  | 0.2 µM